How the values were obtained:
[1] = tested on: in vitro generated exhausted human T-cells; conditions: exhausted T-cells stimulated with SEB and autologous myeloid cells; for CTLA4 CD4, fold change over baseline: CD4 T-cells; for CTLA4 CD8, fold change over baseline: CD8 T-cells
[2] = tested on: in vitro generated exhausted human T-cells; experiment: Exhausted T-cell activation assessed by cytokine secretion (autologous SEB/myeloid cell model); conditions: exhausted T-cells stimulated with SEB and autologous myeloid cells, 3 days

Structure (SMILES) | CTLA4 CD4, fold change over baseline [1] | CTLA4 CD8, fold change over baseline [1] | Cytokines GM-CSF, fold change over baseline [2] | Cytokines IFNγ, fold change over baseline [2] | Cytokines IL-2, fold change over baseline [2]
C[C@H](Cc1nncn1C)c1cccc(NC(=O)c2cc3cc(N4CCNCC4)ccc3cn2)c1 [Compound 472, N-{3-[(2R)-1-(4-methyl-4H-1,2,4-triazol-3-yl)propan-2-yl]phenyl}-6-(piperazin-1-yl)isoquinoline-3-carboxamide] | B (B indicates 1.41-1.60) | B (B indicates 1.41-1.60) | A (A indicates ≤1.40) | C (C indicates >1.61) | A (A indicates ≤2.50)
Cn1cnnc1C(F)(F)[C@](C)(F)c1cccc(N2Cc3c(cc(CN4CC[C@@H](F)C4)cc3C(F)(F)F)C2=O)c1 [Compound 450] | C (C indicates >1.61) | C (C indicates >1.61) | B (B indicates 1.41-1.60) | C (C indicates >1.61) | C (C indicates >3.01)
C[C@@H](c1cc2c(c(C(F)(F)F)c1)CN(c1cccc(C3(Cc4nncn4C)COC3)c1)C2=O)N1CC[C@H](F)C1 [Compound 412, 6-((S)-1-((S)-3-fluoropyrrolidin-1-yl)ethyl)-2-(3-(3-((4-methyl-4H-1,2,4-triazol-3-yl)methyl)oxetan-3-yl)phenyl)-4-(trifluoromethyl)isoindolin-1-one] | A (A indicates ≤1.40) | A (A indicates ≤1.40) | B (B indicates 1.41-1.60) | C (C indicates >1.61) | A (A indicates ≤2.50)
Cc1cc(C(=O)Nc2cccc(C3(Cc4nncn4C)COC3)c2)nc(C2CC2)n1 [Compound 336, 2-cyclopropyl-6-methyl-N-(3-(3-((4-methyl-4H-1,2,4-triazol-3-yl)methyl)oxetan-3-yl)phenyl)pyrimidine-4-carboxamide] | A (A indicates ≤1.40) | A (A indicates ≤1.40) | C (C indicates >1.61) | B (B indicates 1.41-1.60) | C (C indicates >3.01)
Cn1cnnc1CC1(c2cccc(N3Cc4c(cc(CN5CC[C@H](C#N)C5)cc4C(F)(F)F)C3=O)c2)COC1 [Compound 422, (S)-1-((2-(3-(3-((4-methyl-4H-1,2,4-triazol-3-yl)methyl)oxetan-3-yl)phenyl)-3-oxo-7-(trifluoromethyl)isoindolin-5-yl)methyl)pyrrolidine-3-carbonitrile] | C (C indicates >1.61) | C (C indicates >1.61) | B (B indicates 1.41-1.60) | A (A indicates ≤1.40) | A (A indicates ≤2.50)
C[C@H](Cc1nncn1C)c1cccc(NC(=O)c2nc(C(F)(F)F)c[nH]2)c1 [Compound 326, (R)-N-(3-(1-(4-methyl-4H-1,2,4-triazol-3-yl)propan-2-yl)phenyl)-4-(trifluoromethyl)-1H-imidazole-2-carboxamide] | A (A indicates ≤1.40) | A (A indicates ≤1.40) | A (A indicates ≤1.40) | C (C indicates >1.61) | C (C indicates >3.01)
C[C@H](Cc1nncn1C)c1cccc(N2Cc3c(cc(CN4CC[C@](C)(O)C4)cc3C(F)(F)F)C2=O)c1 [Compound 398, 6-(((S)-3-hydroxy-3-methylpyrrolidin-1-yl)methyl)-2-(3-((R)-1-(4-methyl-4H-1,2,4-triazol-3-yl)propan-2-yl)phenyl)-4-(trifluoromethyl)isoindolin-1-one] | B (B indicates 1.41-1.60) | C (C indicates >1.61) | C (C indicates >1.61) | C (C indicates >1.61) | B (B indicates 2.51-3.00)
Cc1cc(C(=O)Nc2cccc([C@H](C)Cc3nncn3C)c2)nc(C2CC2)n1 [Compound 195, (R)-2-cyclopropyl-6-methyl-N-(3-(1-(4-methyl-4H-1,2,4-triazol-3-yl)propan-2-yl)phenyl)pyrimidine-4-carboxamide] | C (C indicates >1.61) | C (C indicates >1.61) | C (C indicates >1.61) | B (B indicates 1.41-1.60) | A (A indicates ≤2.50)
COC1CN(Cc2cc3c(c(C(F)(F)F)c2)CN(c2cccc([C@@](C)(F)C(F)(F)c4nncn4C)c2)C3=O)C1 [Compound 452, (R)-6-((3-methoxyazetidin-1-yl)methyl)-2-(3-(1,1,2-trifluoro-1-(4-methyl-4H-1,2,4-triazol-3-yl)propan-2-yl)phenyl)-4-(trifluoromethyl)isoindolin-1-one] | C (C indicates >1.61) | C (C indicates >1.61) | C (C indicates >1.61) | C (C indicates >1.61) | B (B indicates 2.51-3.00)
C[C@H](Cc1nncn1C)c1cccc(N2Cc3c(cccc3C(F)(F)F)C2=O)c1 [Compound 255a, (R)-2-(3-(1-(4-methyl-4H-1,2,4-triazol-3-yl)propan-2-yl)phenyl)-4-(trifluoromethyl)isoindolin-1-one] | B (B indicates 1.41-1.60) | B (B indicates 1.41-1.60) | A (A indicates ≤1.40) | A (A indicates ≤1.40) | A (A indicates ≤2.50)
Cc1cc(C(=O)Nc2cccc([C@@H](C)Cc3nncn3C)c2)nc(C2CC2)n1 [Compound 325, (S)-2-Cyclopropyl-6-methyl-N-(3-(1-(4-methyl-4H-1,2,4-triazol-3-yl)propan-2-yl)phenyl)pyrimidine-4-carboxamide] | A (A indicates ≤1.40) | A (A indicates ≤1.40) | A (A indicates ≤1.40) | A (A indicates ≤1.40) | A (A indicates ≤2.50)
Cn1cnnc1C(F)(F)[C@](C)(F)c1cccc(N2Cc3c(cc(CN4CC[C@@H](C#N)C4)cc3C(F)(F)F)C2=O)c1 [Compound 455, (R)-1-((3-oxo-2-(3-((R)-1,1,2-trifluoro-1-(4-methyl-4H-1,2,4-triazol-3-yl)propan-2-yl)phenyl)-7-(trifluoromethyl)isoindolin-5-yl)methyl)pyrrolidine-3-carbonitrile] | C (C indicates >1.61) | C (C indicates >1.61) | C (C indicates >1.61) | C (C indicates >1.61) | A (A indicates ≤2.50)
Cn1cnnc1CC1(c2cccc(N3Cc4c(cc(CN5CC(F)C5)cc4C(F)(F)F)C3=O)c2)COC1 [Compound 415, 6-((3-fluoroazetidin-1-yl)methyl)-2-(3-(3-((4-methyl-4H-1,2,4-triazol-3-yl)methyl)oxetan-3-yl)phenyl)-4-(trifluoromethyl)isoindolin-1-one] | C (C indicates >1.61) | C (C indicates >1.61) | C (C indicates >1.61) | C (C indicates >1.61) | A (A indicates ≤2.50)
C[C@H](Cc1nncn1C)c1cccc(N2Cc3c(ccnc3C3CC3)C2=O)c1 [Compound 257, 4-cyclopropyl-2-[3-[(1R)-1-methyl-2-(4-methyl-1,2,4-triazol-3-yl)ethyl]phenyl]-3H-pyrrolo[3,4-c]pyridin-1-one] | A (A indicates ≤1.40) | A (A indicates ≤1.40) | A (A indicates ≤1.40) | C (C indicates >1.61) | A (A indicates ≤2.50)
C[C@H](Cc1nncn1C)c1cccc(N2Cc3c(cc(CN4CC(O)C4)cc3C(F)(F)F)C2=O)c1 [Compound 393, (R)-6-((3-hydroxyazetidin-1-yl)methyl)-2-(3-(1-(4-methyl-4H-1,2,4-triazol-3-yl)propan-2-yl)phenyl)-4-(trifluoromethyl)isoindolin-1-one] | C (C indicates >1.61) | C (C indicates >1.61) | B (B indicates 1.41-1.60) | C (C indicates >1.61) | C (C indicates >3.01)
C[C@H](Sc1nncn1C)c1cccc(NC(=O)c2cc(C(=O)N3CC[C@H](O)C3)ccn2)c1 [Compound 140, 4-[[(3S)-3-hydroxypyrrolidin-1-yl]carbonyl]-N-[3-[(1S)-1-[(4-methyl-4H-1,2,4-triazol-3-yl)sulfanyl]ethyl]phenyl]pyridine-2-carboxamide] | A (A indicates ≤1.40) | A (A indicates ≤1.40) | A (A indicates ≤1.40) | A (A indicates ≤1.40) | A (A indicates ≤2.50)
Cn1cnnc1C(F)(F)[C@](C)(F)c1cccc(N2Cc3c(cc(N4CCNCC4)cc3C(F)(F)F)C2=O)c1 [Compound 442, (R)-6-(Piperazin-1-yl)-2-(3-(1,1,2-trifluoro-1-(4-methyl-4H-1,2,4-triazol-3-yl)propan-2-yl)phenyl)-4-(trifluoromethyl)isoindolin-1-one] | – | – | A (A indicates ≤1.40) | B (B indicates 1.41-1.60) | C (C indicates >3.01)

Source: patent publication US20220324835A1 (Nurix Therapeutics, Inc., priority 2018, published 2022)
